One compound from PubChem BioAssay AID488890 (Southern Research Specialized Biocontainment Screening …, 2010) can be followed below.

The list shows a part of the results, in another mix than the full data. Records with an inconclusive call do not appear. The rule behind the calls is not given here.

A short description of the experiment: growth inhibition of non-replicating M. tuberculosis (AID 488890).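 Note: plate controls were DMSO cells for no effect and high antibiotic wells for full effect.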 Conditions: Mycobacterium tuberculosis non-replicating, at 25 µM, stronger effect = higher value.
What is called inhibition is the relative decrease from the control value, in per cent. For `Nc1cccc2ccc([As](=O)(O)O)cc12`, the inhibition was -3.5%.
